Calls of active or inactive are those of the source. The calls are words filed in the database; no cut-off is given here.
tested on: Mycobacterium tuberculosis; test: Potency index, ratio of triclosan IC50 to compound IC50 for recombinant Mycobacterium tuberculosis InhA expressed in Escherichia coli Rosetta (DE3) pLysS

How did the Ratio IC50 turn out when `O=C(O)[C@H](Cc1c[nH]c2ccccc12)N1C(=O)/C(=C/c2c3ccccc3c(Cl)c3ccccc23)SC1=S` was run?
Its Ratio IC50 is 2.

tested on: Legionella pneumophila; test: Antibacterial activity against Legionella pneumophila axenic forms harboring GFP at 30 uM by spectrophotometric method

For `Cc1ccc(/C=C2\SC(=S)N([C@H](Cc3c[nH]c4ccccc34)C(=O)O)C2=O)c2ccccc12`, which Activity is on record?
Its Activity is “Active”.

How did the Activity turn out when `CCCC(C(=O)O)N1C(=O)/C(=C/c2ccc(N(C)C)c3ccccc23)SC1=S` (stereo not given) was run?
Its Activity is “Active”.

How did the Activity turn out when `Cc1ccc(/C=C2\SC(=S)N([C@@H](Cc3c[nH]c4ccccc34)C(=O)O)C2=O)c2ccccc12` was run?
The Activity was “Active”.

How did the Activity turn out when `CC(C)CC(N1C(=O)/C(=C/c2ccc(N(C)C)c3ccccc23)SC1=S)P(=O)(O)O` (stereo not given) was run?
The Activity was “Active”.

Which Activity does the source give for `CC(C)C[C@@H](C(=O)O)N1C(=O)/C(=C/c2ccc(N(C)C)c3ccccc23)SC1=S` here?
The Activity was “Active”.

For `CC(C)C[C@H](C(=O)O)N1C(=O)/C(=C/c2ccc(N(C)C)c3ccccc23)SC1=S`, which Activity is on record?
Its Activity is “Active”.

`CN(C)c1ccc(/C=C2\SC(=S)N([C@@H](Cc3c[nH]c4ccccc34)C(=O)O)C2=O)c2ccccc12` was tested. Which Activity did it give?
Its Activity is “Active”.

`CCCCC(C(=O)O)N1C(=O)/C(=C/c2ccc(N(C)C)c3ccccc23)SC1=S` (stereo not given) was tested. Which Activity did it give?
Its Activity is “Active”.

`O=C(O)[C@H](Cc1c[nH]c2ccccc12)N1C(=O)/C(=C/c2c3ccccc3c(Cl)c3ccccc23)SC1=S` was tested. Which Activity did it give?
The Activity was “Active”.

Reference: ChEMBL document CHEMBL3861953 (J Med Chem, 2016)
